Pooled drug test results. Numbers come from NIAID ChemDB, via PubChem.

Common to all: whole-cell or culture tests; agent: Hepatitis C virus; measure: EC90

ECn is the concentration giving n% inhibition of infection, replication or growth.

{"smiles": "Nc1ncnc2c1c1c(=O)[nH]c(=S)[nH]c1n2[C@@H]1O[C@H](CO)[C@@H](O)[C@H]1O", "cells": "Huh7", "read by": "replicon", "value": ">10 µM"}
{"smiles": "N#Cc1c(-c2ccc(O)cc2)nc(SCc2nc3ccccc3[nH]2)[nH]c1=O", "cells": "Huh7", "read by": "replicon / PCR", "value": "0.321 µM"}
{"smiles": "Nc1ccn([C@@H]2C=C(CO)[C@@H](O)[C@H]2O)c(=O)n1", "cells": "Huh7", "read by": "PCR", "value": "2.5 µM"}
{"smiles": "Nc1ncnc2c1c1c(N)ncnc1n2[C@@H]1O[C@H](CO)[C@@H](O)[C@H]1O", "cells": "Huh7", "read by": "replicon", "value": ">10 µM"}
{"smiles": "C[C@@]1(O)[C@H](O)[C@@H](CO)O[C@H]1n1ccc(N)nc1=O", "strain": "CLONE A S282T", "cells": "Huh7", "read by": "replicon", "value": ">100 µM"}
{"smiles": "COc1c(C)c2c(c(O)c1C/C=C(\\C)CCC(=O)O)C(=O)OC2", "cells": "Huh7", "read by": "PCR", "value": ">100 µM"}
{"smiles": "N#Cc1c(-c2ccc(Cl)cc2)nc(SCc2nc3ccccc3[nH]2)[nH]c1=O", "cells": "Huh7", "read by": "replicon / PCR", "value": "0.654 µM"}
{"smiles": "CC[C@H](C)C(=O)O[C@H]1C[C@H](O)C=C2C=C[C@H](C)C(CC[C@@H](O)C[C@H](O)CC(=O)O)[C@H]21", "cells": "Huh 5-2", "read by": "luciferase / replicon", "value": ">20 µM"}
{"smiles": "CC(C)COC(=O)N[C@H](C(=O)N(C)[C@@H](CC1CC1)C(=O)NC(CC1CC1)C(=O)C(=O)NCC(=O)N[C@H](C(=O)N(C)C)c1ccccc1)C1CCCCC1", "value": "0.95 µM"}
{"smiles": "Cc1c(-c2ccc(-c3ccccc3F)cc2)nc2ccc(F)cc2c1C(=O)O", "cells": "Huh7", "read by": "PCR", "value": ">100 µM"}
{"smiles": "O=C(O)c1c(-c2ccccc2O)nc(SCc2nc3ccccc3[nH]2)[nH]c1=O", "cells": "Huh7", "read by": "replicon / PCR", "value": "0.987 µM"}
{"smiles": "NC(=O)c1csc([C@@H]2O[C@H](CO)[C@@H](O)[C@H]2O)n1", "read by": "PCR", "value": ">100 µM"}
{"smiles": "CCC[C@H](NC(=O)[C@@H]1[C@H]2CCC[C@H]2CN1C(=O)[C@@H](NC(=O)[C@@H](NC(=O)c1cnccn1)C1CCCCC1)C(C)(C)C)C(=O)C(=O)NC1CC1", "strain": "genotype 1b", "cells": "Huh7.5", "read by": "luciferase / reporter gene", "value": "0.9119 µM"}
{"smiles": "C[C@@]1(O)[C@H](O)[C@@H](CO)O[C@H]1n1cnc2c(N)nc(N)nc21", "cells": "Huh7", "read by": "PCR", "value": ">10 µM"}
{"smiles": "CCOC(=O)[C@H](C)NP(=O)(OC[C@H]1O[C@@H](n2c3ncnc(N)c3c3c(N)ncnc32)[C@](C)(O)[C@@H]1O)Oc1ccccc1", "cells": "Huh7", "read by": "replicon", "value": ">10 µM"}
{"smiles": "O=C(O)c1c(-c2ccccc2)nc(SCc2nc3ccccc3[nH]2)[nH]c1=O", "cells": "Huh7", "read by": "replicon / PCR", "value": "1.12 µM"}
{"smiles": "O=c1cnn([C@@H]2O[C@H](CO)[C@@H](O)[C@H]2O)c(=S)[nH]1", "cells": "Huh7", "read by": "PCR", "value": ">100 µM"}

Repeating the first 2 entries:

Nc1ncnc2c1c1c(=O)[nH]c(=S)[nH]c1n2[C@@H]1O[C@H](CO)[C@@H](O)[C@H]1O ; cells: Huh7 ; read by: replicon ; value: >10 µM
N#Cc1c(-c2ccc(O)cc2)nc(SCc2nc3ccccc3[nH]2)[nH]c1=O ; cells: Huh7 ; read by: replicon / PCR ; value: 0.321 µM

Neighbouring rows are from separate reports.